According to US20230391835A1 (Pfizer, published 2023):

Key:
[1] = target: Toxoid B (List Biologicals), formalin-inactivated wild-type toxin B (Clostridium difficile, UniProt P18177 2-2366); assay: dot blot; FI Toxoid B (List Biological)
[2] = target: L44905-86-05 Triple mutant toxin B (SEQ ID NO: 6), Rxn2, 25 C, day1 (Clostridium difficile (strain 630))
[3] = target: L44905-86-16 Triple mutant toxin B (SEQ ID NO: 6), Rxn2, 10 C, day7 (Clostridium difficile (strain 630))
[4] = target: L44905-86-08 Triple mutant toxin B (SEQ ID NO: 6), Rxn1, 10 C, day 5 (Clostridium difficile (strain 630))
[5] = target: L44905-86-07 Triple mutant toxin B (SEQ ID NO: 6), Rxn3, 25 C, day 1 (Clostridium difficile (strain 630))
[6] = target: L44905-86-06 Triple mutant toxin B (SEQ ID NO: 6), Rxn3, 10 C, day 1 (Clostridium difficile (strain 630))
[7] = target: L34346-30A, EDC/NHS-treated triple mutant toxin B (SEQ ID NO: 6) (Clostridium difficile (strain 630))
[8] = target: L34346-30B, EDC/NHS-treated triple mutant toxin B (SEQ ID NO: 6), glycine added (Clostridium difficile (strain 630))
[9] = target: L44905-86-02 Triple mutant toxin B (SEQ ID NO: 6), Rxn1, 10 C, day1 (Clostridium difficile (strain 630))
[10] = target: L44905-86-04 Triple mutant toxin B (SEQ ID NO: 6), Rxn2, 10 C, day1 (Clostridium difficile (strain 630))
[11] = target: L44905-86-10 Triple mutant toxin B (SEQ ID NO: 6), Rxn2, 10 C, day5 (Clostridium difficile (strain 630))
[12] = target: L44905-86-12 Triple mutant toxin B (SEQ ID NO: 6), Rxn3, 10 C, day5 (Clostridium difficile (strain 630))
[13] = target: L44905-86-15 Triple mutant toxin B (SEQ ID NO: 6), Rxn1, 25 C, day7 (Clostridium difficile (strain 630))
[14] = target: L44905-86-18 Triple mutant toxin B (SEQ ID NO: 6), Rxn3, 10 C, day7 (Clostridium difficile (strain 630))
[15] = target: L44905-86-17 Triple mutant toxin B (SEQ ID NO: 6), Rxn2, 25 C, day7 (Clostridium difficile (strain 630))
[16] = target: L44905-86-09 Triple mutant toxin B (SEQ ID NO: 6), Rxn1, 25 C, day 5 (Clostridium difficile (strain 630))
[17] = target: L44905-86-11 Triple mutant toxin B (SEQ ID NO: 6), Rxn2, 25 C, day5 (Clostridium difficile (strain 630))
[18] = target: L44905-86-19 Triple mutant toxin B (SEQ ID NO: 6), Rxn3, 25 C, day7 (Clostridium difficile (strain 630))
[19] = target: L44905-86-14 Triple mutant toxin B (SEQ ID NO: 6), Rxn1, 10 C, day7 (Clostridium difficile (strain 630))
[20] = target: L44905-86-03 Triple mutant toxin B (SEQ ID NO: 6), Rxn1, 25 C, day1 (Clostridium difficile (strain 630))
[21] = target: L44905-86-13 Triple mutant toxin B (SEQ ID NO: 6), Rxn3, 25 C, day5 (Clostridium difficile (strain 630))
[22] = target: Commercial, FI Toxoid B (List Biologicals) (Clostridium difficile, UniProt P18177 2-2366); assay: dot blot, non-denaturing conditions; commercial FI Toxoid B (List Biologicals)

Measured: binding result

B1: B9-30 mAb (antibody, V domains shown)
VH: QVQLQQPGAEVVKPGAPVKLSCKASGYPFTNYWMNWVKQRPGRGLEWIGRIDPSNSEIYYNQKFKDKATLTVDKSSSTAYIQLSSLTSEDSAVYYCASGHYGSIFAYWGQGTTLTVSS
VL: VQITQSPSYLAASPGETITINCRASKSISKYLAWYQEKPGKTNKLLIYSGSTLQSGIPSRFSGSRSGTDFTLIISSLEPEDSAMYYCQQHNEYPLTFGAGTKLELKR
binds: [1]

B2: B8-26 mAb (C. difficile TcdB neutralizing antibody) (antibody, V domains shown)
VH: B1 VH with V11L, P28S, N31S
VL: B1 VL with I47L
binds: [2] | [3] | [4] | [5] | [6] | [7] | [8] | [9] | [10] | [11] | [12] | [13] | [14] | [15] | [16] | [17] | [18] | [19] | [20] | [21]

B3: B9-30 mAb (C. difficile TcdB neutralizing antibody) (antibody, V domains shown)
VH: B1 VH
VL: B1 VL
binds: [22]

B4: B59-3 mAb (C. difficile TcdB neutralizing antibody) (antibody, V domains shown)
VH: QVQLQQPGAELVKPGASVKLSCKASGYTFTSYWMHWVKQRPGQGLEWIGVINPSNGRSTYSEKFKTTATVTVDKSSSTAYMQLSILTSEDSAVYYCARAYYSTSYYAMDYWGQGTSVTVSS
VL: VLMTQSPLSLPVSLGDQASISCRSSQNIVHSNGNTYLEWYLQKPGQSPKLLIYKVSNRFSGVPDRFSGSGSGTYFTLKISRVEAEDLGVYYCFQGSHFPFTFGTGTKLEIKR
binds: [2] | [3] | [4] | [5] | [6] | [7] | [8] | [9] | [10] | [11] | [12] | [13] | [14] | [15] | [16] | [17] | [18] | [19] | [20] | [21]

Changes are numbered by the printed parent chain.
